This is one part of the list. Entries with a potency or affinity are not part of this list. Calls of active or inactive are those of the source. No rule for the calls is given here.
experiment: inhibitors of VEEV TC-83 cytopathic effect, confirmation, Vero cells (AID 588727); conditions: VEEV TC-83 cytopathic effect inhibition, at 20 µM; active compounds read high

Row | SMILES | inhibition
1 | CC1(CBr)Cn2c(nc3ccccc3c2=O)S1 (stereo not given) | inactive: 1.04%
2 | CC(C)/C=N\N=C(\N)N[N+](=O)[O-] | inactive: 0.76%
3 | CN(C(=O)Cc1ccc(Cl)c(Cl)c1)[C@@H]1CCCC[C@H]1N1CCCC1 | inactive: 0.59%
4 | COc1ccccc1CNC(=O)COC(=O)C(O)(c1ccccc1)c1ccccc1 | inactive: 0.57%
5 | CC(C)(C)C(=O)NC(Sc1ncccn1)C(Cl)(Cl)Cl (stereo not given) | inactive
6 | O=P1(N(CCCl)CCCl)NCCC(C(F)(F)F)O1 (stereo not given) | inactive
7 | Clc1n[nH]nc1-c1nn[nH][15n]1 | inactive: 1.09%
8 | CCOP(=O)(Nc1ccc(C)cn1)OCC | inactive: 0.61%
9 | CCOP(=O)(NC(=NC(C)c1ccccc1)NC(C)c1ccccc1)OCC (stereo not given) | inactive
10 | O=P1(Nc2ccccn2)COc2ccccc2OC1 | inactive: 3.14%
11 | CCC1=CC2Cc3nc4ccc(Cl)cc4c(N)c3C(C1)C2 (stereo not given) | inactive: 4.09%
12 | O=[As](O)(c1cccs1)c1cccs1 | inactive
13 | Cc1ccc(OCC(=O)OC2CN3CCC2CC3)cc1 (stereo not given) | inactive: 0.56%
14 | O=P1(Nc2ccc(Br)cn2)COc2ccccc2OC1 | inactive
15 | NS(=O)(=O)c1cccc(NC(=O)COC(=O)C(O)(c2ccccc2)c2ccccc2)c1 | inactive: 4.18%
16 | Nc1cccc([As](=O)(O)c2ccccc2)c1 | inactive: 0.32%
17 | O=P1(Nc2ncccn2)COc2ccccc2OC1 | inactive: 4.58%
18 | CCCC1OP(=O)(Nc2ccccc2)OCC1CC (stereo not given) | inactive: 0.11%
19 | O=C(/C=C/c1ccccc1)OC1CN2CCC1CC2 (stereo not given) | inactive: 1.98%
20 | CN(C)C1(CNC(=O)c2ccc(S(C)(=O)=O)cc2)CCCCC1 | inactive: 1.35%
21 | CC1CCC(C(C)C)C(OP(=O)(Nc2ccccn2)c2ccccc2)C1 (stereo not given) | inactive: 8.89%
22 | Cc1ccc(C(=O)OC2CN3CCC2CC3)cc1 (stereo not given) | inactive: 0.05%
23 | Cc1nn(-c2ccccc2)c2c1P(=O)(N1CCOCC1)N(C)C(c1ccccc1)=N2 (stereo not given) | inactive: 1.26%
24 | CN(C(=O)Cc1ccc(Cl)c(Cl)c1)[C@H]1CC[C@@]2(CCCO2)C[C@@H]1N1CCCC1 | inactive: 3.39%
25 | O=[N+]([O-])c1ccc2c(c1)nnn2O | inactive
26 | CN(C)C(=O)c1cc([N+](=O)[O-])cc2c1-c1c(cc([N+](=O)[O-])cc1[N+](=O)[O-])C2=O | inactive
27 | CN(C(=O)Cc1ccccc1)[C@@H]1CC[C@]2(CCCO2)C[C@H]1N1CCCC1 | inactive

Row | SMILES | inhibition
28 | CCOP1(=S)c2c(C)nn(CCC#N)c2N=C(c2ccc(F)cc2)N1C (stereo not given) | inactive: 0.29%
29 | N#CCCN(C(=O)COC(=O)C(O)(c1ccccc1)c1ccccc1)c1ccc(F)cc1 | inactive: 0.7%
30 | NC(=O)Nc1ccc([As](=O)(O)O)cc1 | inactive: 0.97%
31 | Nc1ccccc1[As](=O)(O)c1ccccc1 | inactive: 0.44%
32 | O=C(O)COc1ccc([As](=O)(O)O)cc1[N+](=O)[O-] | inactive: 0.46%
33 | CS(=O)(=O)c1cc([N+](=O)[O-])c2no[n+]([O-])c2c1 | inactive: 0.56%
34 | O=P(Nc1nccs1)(Oc1ccccc1)Oc1ccccc1 | inactive: 0.58%
35 | O=P(Nc1nccs1)(c1ccccc1)c1nc2ccccc2s1 (stereo not given) | inactive: 3.99%
36 | CCOP1(=S)c2c(C)nn(CCC#N)c2N=C(c2ccccc2F)N1C (stereo not given) | inactive: 0.84%
37 | CCOP(=O)(Nc1cccc2ccccc12)OCC | inactive: 0.49%
38 | COc1cc(C2NCCC3(OCCO3)C2(C)C)cc(OC)c1OC (stereo not given) | inactive: 1.04%
39 | CCCOP(=S)(Nc1nc(N)cc(=O)[nH]1)OCCC | inactive: 0.05%
40 | Nc1cccc2c([As](=O)(O)O)cccc12 | inactive
41 | Cc1ccc(NCCc2c([N+](=O)[O-])cc([N+](=O)[O-])cc2[N+](=O)[O-])cc1 | inactive: 4.21%
42 | Cc1cccc(OCC(=O)OC2CN3CCC2CC3)c1 (stereo not given) | inactive: 1.37%
43 | O=[As](O)(c1cccc(O)c1)c1cccc(O)c1 | inactive: 1.14%
44 | CS(=O)(=O)c1ccc(Cl)c(NC(=O)COC(=O)C(O)(c2ccccc2)c2ccccc2)c1 | inactive: 1.44%
45 | O=[As](O)(O)c1cccnc1 | inactive
46 | COc1cc(C(=O)NCC2(N3CCOCC3)CCCCC2)cc(Cl)c1OC(C)C | inactive: 0.22%
47 | O=C(OC1CN2CCC1CC2)c1ccc(Cl)cc1 (stereo not given) | inactive
48 | COc1ccc(N/C(=N/P(=O)(N2CCOCC2)N2CCOCC2)N2CCOCC2)cc1 | inactive
49 | O=[N+]([O-])c1cc(Oc2ccc([N+](=O)[O-])cc2C(F)(F)F)cc([N+](=O)[O-])c1 | inactive: 2.86%
50 | COc1cc(I)ccc1[As](=O)(O)O | inactive: 1.13%
51 | COc1ccc2nc(NP(=O)(c3ccccc3)c3ccccc3)sc2c1 | inactive: 5.48%
52 | O=P1(N(CCCl)CCCl)OCCCN1CCCl (stereo not given) | inactive: 2.18%
53 | O=P1(N(CCCl)CCCl)Nc2ccccc2N1 | inactive: 1.56%
54 | Cc1cc(=O)[nH]c(N[N+](=O)[O-])n1 | inactive: 1.16%

Row | SMILES | inhibition
55 | O=C(OC1CN2CCC1CC2)C12CC3CC(CC(C3)C1)C2 (stereo not given) | inactive
56 | Cc1c2c(nc3ccccc13)SC(C(Cl)Cl)C2 (stereo not given) | inactive: 0.9%
57 | O=[N+]([O-])c1cc([N+](=O)[O-])c(-c2ccn[nH]2)s1 | inactive: 1.83%
58 | CC(C)NC(=O)NP(=O)(Oc1ccccc1)Oc1ccccc1 | inactive: 0.62%
59 | O=C(OC1CN2CCC1CC2)c1cccc2[nH]cnc12 (stereo not given) | inactive: 0.92%
60 | CCN(CC)C(=S)SC(NC=O)C(Cl)(Cl)Cl (stereo not given) | inactive: 9.53%
61 | COC(=O)C1(C)COP(=O)(N2CCCCCC2)OC1 (stereo not given) | inactive: 0.58%
62 | CC(C)c1ccc(OP(=O)(Nc2ccccn2)Oc2ccccc2F)cc1 (stereo not given) | inactive: 4.84%
63 | ClCCSc1nnc(-c2cccnc2)o1 | inactive: 1.01%
64 | Cc1ccc2nc3c(c(C)c2c1)CC(C(Cl)Cl)S3 (stereo not given) | inactive
65 | Cc1ccc(OP(=O)(Nc2ccc([N+](=O)[O-])cn2)Oc2ccc(C)cc2)cc1 | inactive
66 | O=[N+]([O-])c1ccc(-c2cc([N+](=O)[O-])c(O)c([N+](=O)[O-])c2)cc1 | inactive: 9.47%
67 | COc1cc(C(=O)NCC2(N3CCOCC3)CCCCC2)ccc1OCC(C)C | inactive
68 | C[As](=O)(O)c1cccc(C(=O)O)c1 | inactive: 0.85%
69 | O=[As](O)(c1ccc(O)cc1)c1ccccc1O | inactive: 0.5%
70 | O=[N+]([O-])c1ccc(Nc2ccc(Oc3ccc([N+](=O)[O-])cc3[N+](=O)[O-])cc2)c([N+](=O)[O-])c1 | inactive: 0.82%
71 | O=P(Nc1ccccn1)(c1cccc2ccccc12)c1cccc2ccccc12 | inactive: 2.45%
72 | Cc1cc(SC(NC=O)C(Cl)(Cl)Cl)ncn1 (stereo not given) | inactive: 0.45%
73 | CCOC(=O)Nc1cccc([As](=O)(O)O)c1 | inactive
74 | Cc1cc(SC(NC(=O)c2ccccc2)C(Cl)(Cl)Cl)nc(C(C)C)n1 (stereo not given) | inactive: 1.04%
75 | CCCCOc1ccc(C(=O)NCC2(N3CCCCC3)CCCCC2)cc1OC | inactive: 0.15%
76 | COP(=O)(OC)N1CC1c1ccccc1 (stereo not given) | inactive: 0.76%
77 | CC1CCNP(=O)(N(CCCl)CCCl)O1 (stereo not given) | inactive: 0.1%
78 | CCOC(=O)Nc1ccc([As](=O)(O)O)c(O)c1 | inactive
79 | O=C(O)C(O)c1ccc(N(CCCl)CCCl)cc1 (stereo not given) | inactive: 0.32%
80 | CCC(C)N(CC(C)C)C(=S)SC(NC(C)=O)C(Cl)(Cl)Cl (stereo not given) | inactive: 4.73%
81 | CCOC(=O)c1ccc(NC(=O)C(C)(CCl)SC)cc1 (stereo not given) | inactive: 1.3%

Row | SMILES | inhibition
82 | O=C(OC1CN2CCC1CC2)c1cccc([N+](=O)[O-])c1 (stereo not given) | inactive: 1.1%
83 | O=C(Nc1ccncc1[N+](=O)[O-])c1ccc([N+](=O)[O-])cc1[N+](=O)[O-] | inactive: 3.1%
84 | O=C(COc1ccccc1)OC1CN2CCC1CC2 (stereo not given) | inactive
85 | O=C(O)C(=O)c1ccc(N(CCCl)CCCl)cc1 | inactive: 1.26%
86 | COP1(=S)c2c(C)nn(CCC#N)c2N=C(c2ccc(F)cc2)N1C (stereo not given) | inactive: 0.57%
87 | CN(C)C(=O)OCCc1n(C)cc[n+]1C | inactive: 3.22%
88 | CC(C)c1nc(Nc2ccccc2)n(P(=O)(N(C)C)N(C)C)n1 | inactive
89 | CC(C)=N/N=C(\N)N[N+](=O)[O-] | inactive
90 | CC1CCN(C(=O)Oc2c(Cl)cc(Cl)c3cccnc23)CC1 | inactive: 0.06%
91 | c1cc(-c2nn[nH]n2)ccc1-c1nn[nH]n1 | inactive: 0.58%
92 | C[N+]1=C2C=CC=CC=C2SC12C([N+](=O)[O-])=CC([N+](=O)[O-])=C[C-]2[N+](=O)[O-] (stereo not given) | inactive
93 | Nc1ccc([As](=O)(O)c2ccc(N)cc2)cc1 | inactive
94 | CCN(/C(=N/P(=O)(N1CCOCC1)N1CCOCC1)N1CCOCC1)c1ccc(OC)cc1 | inactive: 0.65%
95 | O=[N+]([O-])c1cccc2n[nH]nc12 | inactive
96 | CC(=O)N1C2C3N(C(C)=O)C1C1N(C(C)=O)C(C(N1C(C)=O)N3C(C)=O)N2C(C)=O | inactive: 0.55%
97 | CCc1nc2c(n1)c1c(non1O)c1c2no[n+]1[O-] | inactive: 1.33%
98 | O=[N+]([O-])c1cc([N+](=O)[O-])c(CCNc2ccccc2)c([N+](=O)[O-])c1 | inactive: 2.69%
99 | Cc1ccc(NP(=O)(Oc2ccccc2)Oc2ccccc2)nc1 | inactive: 1.31%
100 | COc1ccc(C2=NCC(CBr)S2)cc1 (stereo not given) | inactive: 0.17%
101 | COC(=O)C1(C)COP(=O)(Nc2ccccc2)OC1 (stereo not given) | inactive: 0.85%
102 | O=[N+]([O-])c1cccc(NC2=NCC(CBr)S2)c1 (stereo not given) | inactive: 1.3%
103 | O=C(O)CNc1ccc([As](=O)(O)O)cc1 | inactive: 0.61%
104 | CC(C)(C)C(=O)NC(Sc1ccncn1)C(Cl)(Cl)Cl (stereo not given) | inactive: 0.54%
105 | O=[N+]([O-])c1ncn(CCn2ncnc2[N+](=O)[O-])n1 | inactive: 1.73%
